A mixed list of measured activities; the numbers were collected in NIAID ChemDB.

Shared fields: tests in culture; agent: Varicella zoster virus; read-out: EC50

Blank or dashed fields: not listed here. Lines come from different laboratories, so protocols vary. ECn is the concentration giving n% inhibition of infection, replication or growth.

CC(C)Nc1ncnc2c1ncn2C1C[C@H](CO)[C@@H](CO)C1 ; strain or isolate: YS/R (TK-) ; cells: HEL ; value: >100 µg/mL
Nc1nc2c(ncn2CCC(CO)CO)c(=O)[nH]1 ; strain or isolate: Clinical isolate VZV-33 ; cells: HEL ; read by: cytopathic effect ; value: 2.49 µM
CCCCCC#Cc1c[nH]c(=O)[nH]c1=O ; strain or isolate: OKA ; cells: HEL ; read by: plaque count ; value: >80 µM
Cc1cn([C@@H]2O[C@H](CO)[C@H]2CO)c(=O)[nH]c1=O ; strain or isolate: V8908 (TK-) ; cells: HFF ; read by: plaque count ; value: 3 µg/mL
O=C(O)P(=O)(O)O ; strain or isolate: Clinical isolate VZV-26 ; cells: HEL ; read by: cytopathic effect ; value: 85.5 µM
Cc1cc([C@@H]2C[C@H](O)[C@@H](CO)O2)c(F)cc1Cl ; strain or isolate: (TK-)07/1 ; cells: HEL ; read by: plaque count ; value: >200 µM
COc1ccc(CSCc2cnc3c(Br)cc(Br)c(C)n23)cc1 ; strain or isolate: YS/R (TK-) ; cells: HEL ; read by: plaque count ; value: >20 µg/mL
CCCCCCCC#Cc1c[nH]c(=O)[nH]c1=O ; strain or isolate: OKA ; cells: HEL ; read by: plaque count ; value: 37 µM
O=c1nc2oc(CCOC3CCCCO3)cc2cn1[C@H]1C[C@H](O)[C@@H](CO)O1 ; strain or isolate: YS ; cells: HEL ; read by: plaque count ; value: >40 µM
Nc1ncnc2c1ncn2C[C@@H](CO)OCP(=O)(O)O ; strain or isolate: Oka acyclovir-resistant ; cells: HEL ; read by: cytopathic effect ; value: 0.014 µM
Cc1c(Br)cc(Br)c2ncc(CSCc3ccco3)n12 ; strain or isolate: YS (TK+) ; cells: HEL ; read by: plaque count ; value: 11 µg/mL
OC[C@H]1O[C@@H](c2cc(C(O)CI)c(F)cc2F)C[C@@H]1O ; strain or isolate: YS (TK+) ; cells: HEL ; read by: plaque count ; value: 126 µg/mL
O=c1[nH]c(=O)n(C2C[C@H](CO)[C@@H](CO)C2)cc1I ; strain or isolate: YS/R (TK-) ; cells: HEL ; value: >100 µg/mL
OC[C@H]1O[C@H](c2cc(F)c(F)cc2F)C[C@@H]1O ; strain or isolate: TK+/YS ; cells: HEL ; read by: plaque count ; value: >200 µM
CCCCCOCCCCc1cc2cn([C@H]3C[C@H](O)[C@@H](CO)O3)c(=O)nc2o1 ; strain or isolate: YS ; cells: HEL ; read by: plaque count ; value: 0.75 µM
O=c1[nH]cnc2c1ncn2C1C[C@H](CO)[C@@H](CO)C1 ; strain or isolate: YS/R (TK-) ; cells: HEL ; value: >100 µg/mL
Nc1nc(N)c2ncn(CCOCP(=O)(O)O)c2n1 ; strain or isolate: Oka CF1743-resistant ; cells: HEL ; read by: cytopathic effect ; value: 1.3 µM
O=C(NCc1ccc(Cl)cc1)c1c[nH]c2c(F)cccc2c1=O ; strain or isolate: STE ; read by: plaque count ; value: 0.9 µM
Nc1nc2c(ncn2CCC(CO)CO)c(=O)[nH]1 ; strain or isolate: Kawaguchi ; cells: MRC-5 ; read by: plaque count ; value: 0.69 µg/mL
C#Cc1cn(S(=O)(=O)c2ccc(C)cc2)c(=O)[nH]c1=O ; strain or isolate: OKA ; cells: HEL ; read by: plaque count ; value: >16 µM
Cc1ccc(CSCc2cnc3c(Br)cc(Br)c(C)n23)cc1 ; strain or isolate: YS (TK+) ; cells: HEL ; read by: plaque count ; value: >20 µg/mL
CCCCC#Cc1c[nH]c(=O)[nH]c1=O ; strain or isolate: 07/1 ; cells: HEL ; read by: plaque count ; value: >400 µM
CCCCCCCCCCc1cc2cn([C@H]3C[C@H](O)[C@@H](CO)O3)c(=O)nc2o1 ; strain or isolate: YS/R (TK-) ; cells: HEL ; read by: plaque count ; value: >50 µM
Cc1cc([C@@H]2C[C@H](O)[C@@H](CO)O2)c(F)cc1F ; strain or isolate: (TK-)07/1 ; cells: HEL ; read by: plaque count ; value: >200 µM
OC[C@H]1O[C@@H](c2cc(C(O)C(I)I)c(F)cc2F)C[C@@H]1O ; strain or isolate: OKA (TK+) ; cells: HEL ; read by: plaque count ; value: 130 µg/mL
CCCCCCC#Cc1cn(S(=O)(=O)c2ccc(C)cc2)c(=O)[nH]c1=O ; strain or isolate: 07/1 ; cells: HEL ; read by: plaque count ; value: >16 µM
O=c1nc2oc(CCCC3OCCO3)cc2cn1[C@H]1C[C@H](O)[C@@H](CO)O1 ; strain or isolate: 07/1 (TK-) ; cells: HEL ; read by: plaque count ; value: >200 µM
Cc1cc([C@H]2C[C@H](O)[C@@H](CO)O2)c(F)cc1Cl ; strain or isolate: (TK-)07/1 ; cells: HEL ; read by: plaque count ; value: >200 µM
CCCCCCC#Cc1c[nH]c(=O)[nH]c1=O ; strain or isolate: 07/1 ; cells: HEL ; read by: plaque count ; value: >80 µM
OC[C@H]1O[C@@H](c2cc(I)c(F)cc2F)C[C@@H]1O ; strain or isolate: (TK-)07/1 ; cells: HEL ; read by: plaque count ; value: >200 µM
O=c1[nH]c(=O)n([C@H]2C[C@H](O)[C@@H](CO)O2)cc1-c1ccc(Br)s1 ; strain or isolate: OKA (TK+) ; cells: HEL ; read by: plaque count ; value: 0.072 µM
Cc1c(Br)cc(Br)c2ncc(CSCc3cccc(C(F)(F)F)c3)n12 ; strain or isolate: 07/1 (TK-) ; cells: HEL ; read by: plaque count ; value: >5 µg/mL
OC[C@H]1O[C@@H](c2ccc(F)cc2F)C[C@@H]1O ; strain or isolate: (TK-)07/1 ; cells: HEL ; read by: plaque count ; value: >200 µM
Cn1cc(C(=O)NCc2ccc(Cl)cc2)c(=O)c2cc(CN3CCOCC3)ccc21 ; strain or isolate: GE varicella isolate ; cells: HFF ; read by: plaque count ; value: 0.1 µM
Cc1c(Br)cc(Br)c2ncc(CSCCCc3ccccc3)n12 ; strain or isolate: YS (TK+) ; cells: HEL ; read by: plaque count ; value: 4 µg/mL
Nc1nc2c(ncn2CCC(CO)CO)c(=O)[nH]1 ; strain or isolate: YS/R (TK-) ; cells: HEL ; read by: plaque count ; value: >194 µM
Cc1cccn2c(CSCc3ccccc3)cnc12 ; strain or isolate: OKA (TK+) ; cells: HEL ; read by: plaque count ; value: 0.9 µg/mL
Nc1nc2c(ncn2COC(CO)CO)c(=O)[nH]1 ; strain or isolate: OKA (TK+) ; cells: HEL ; read by: plaque count ; value: 0.52 µM
O=[N+]([O-])c1cc([C@H]2C[C@H](O)[C@@H](CO)O2)c(F)cc1F ; strain or isolate: (TK-)07/1 ; cells: HEL ; read by: plaque count ; value: 72 µM
O=c1[nH]c(=O)n([C@H]2C[C@H](O)[C@@H](CO)O2)cc1/C=C/Br ; strain or isolate: YS (TK+) ; cells: HEL ; read by: plaque count ; value: 0.0045 µM
Cc1cc([C@H]2C[C@H](O)[C@@H](CO)O2)c(Cl)cc1F ; strain or isolate: (TK+)/OKA ; cells: HEL ; read by: plaque count ; value: >200 µM
CC#Cc1cn([C@@H]2O[C@H](CO)[C@@H](O)[C@@H]2O)c(=O)[nH]c1=O ; strain or isolate: YS (TK+) ; cells: HEL ; read by: plaque count ; value: 0.34 µM
OC[C@H]1O[C@@H](c2cc(Br)c(F)cc2F)C[C@@H]1O ; strain or isolate: (TK-)/YS/R ; cells: HEL ; read by: plaque count ; value: >200 µM

The first 5 rows once more:

structure,strain or isolate,cells,read by,value
CC(C)Nc1ncnc2c1ncn2C1C[C@H](CO)[C@@H](CO)C1,YS/R (TK-),HEL,-,>100 µg/mL
Nc1nc2c(ncn2CCC(CO)CO)c(=O)[nH]1,Clinical isolate VZV-33,HEL,cytopathic effect,2.49 µM
CCCCCC#Cc1c[nH]c(=O)[nH]c1=O,OKA,HEL,plaque count,>80 µM
Cc1cn([C@@H]2O[C@H](CO)[C@H]2CO)c(=O)[nH]c1=O,V8908 (TK-),HFF,plaque count,3 µg/mL
O=C(O)P(=O)(O)O,Clinical isolate VZV-26,HEL,cytopathic effect,85.5 µM